Compound potency records, mixed from different reports. Data source: NIAID ChemDB in PubChem.

Common to all: tests in culture; species: Streptococcus pneumoniae; endpoint: MIC

Lines come from different laboratories, so protocols vary.

SMILES,strain,value
C[C@H]1NCc2cc(-c3c(F)cc4c(=O)c(C(=O)O)cn(C5CC5)c4c3OC(F)F)ccc21,R6,0.015 µg/mL
CC[C@H]1OC(=O)[C@H](C)C(=O)[C@H](C)[C@@H](O[C@@H]2O[C@H](C)C[C@H](N(C)C)[C@H]2O)[C@@]2(C)C[C@@H](C)C(=NC(C)=O)[C@H](C)C(OC/C(=N/OCc3ccccc3)CO2)[C@]1(C)O,49619 (erythromycin-susceptible),0.25 µg/mL
COc1c(N2CCNC(C)C2)c(F)cc2c(=O)c(C(=O)O)cn(C3CC3)c12,D-1687,2 µg/mL
CC[C@H]1OC(=O)[C@H](C)C(=O)[C@H](C)[C@@H](O[C@@H]2O[C@H](C)C[C@H](N(C)C)[C@H]2O)[C@@]2(C)C[C@@H](C)C(=NC(C)=O)[C@H](C)C(OC/C(=C\c3ccccc3)CO2)[C@]1(C)O,700906 (erythromycin-resistant-ERM),32 µg/mL
CC[C@H]1OC(=O)[C@@](C)(F)C(=O)[C@H](C)[C@@H](O[C@@H]2O[C@H](C)C[C@H](N(C)C)[C@H]2O)[C@@]2(C)C[C@@H](C)C(=NC(C)=O)[C@H](C)[C@@H](OC/C(=N/OCc3ccc(-c4cccc(N)n4)s3)CO2)[C@]1(C)O,700906 (erythromycin A-resistant),0.25 µg/mL
CC[C@H]1OC(=O)[C@H](C)C(=O)[C@H](C)[C@@H](O[C@@H]2O[C@H](C)C[C@H](N(C)C)[C@H]2O)[C@@]2(C)C[C@@H](C)C(=NC(C)=O)[C@H](C)C(OC/C(=N\OCc3ccccc3)CO2)[C@]1(C)O,700906 (erythromycin-resistant-ERM),0.5 µg/mL
CC[C@H]1OC(=O)[C@@](C)(F)C(=O)[C@H](C)[C@@H](O[C@@H]2O[C@H](C)C[C@H](N(C)C)[C@H]2O)[C@@]2(C)C[C@@H](C)C(=O)[C@H](C)[C@@H](OC/C(=N\OCc3ccc(-n4cccn4)nc3)CO2)[C@]1(C)O,7701 (erythromycin A-resistant),0.13 µg/mL
CC[C@H]1OC(=O)[C@H](C)C(=O)[C@H](C)[C@@H](O[C@@H]2O[C@H](C)C[C@H](N(C)C)[C@H]2O)[C@@]2(C)C[C@@H](C)C(=NC(C)=O)[C@H](C)[C@@H](OC/C(=N\OCc3ccc4nc(N)sc4c3)CO2)[C@]1(C)O,49619 (erythromycin-susceptible),<0.06 µg/mL
O=C(Nc1cccc(C2=NCCN2)c1)Nc1cccc(C2=NCCN2)c1,STP51 (penicillin-resistant),134 µM
CC[C@H]1OC(=O)[C@H](C)C(=O)[C@H](C)[C@@H](O[C@@H]2O[C@H](C)C[C@H](N(C)C)[C@H]2O)[C@@]2(C)C[C@@H](C)C(=NC(C)=O)[C@H](C)C(OC/C(=C\C=C\c3ccc(OC)cc3)CO2)[C@]1(C)O,49619 (erythromycin-susceptible),0.125 µg/mL
CC[C@H]1OC(=O)[C@H](C)C(=O)[C@H](C)[C@@H](O[C@@H]2O[C@H](C)C[C@H](N(C)C)[C@H]2O)[C@@]2(C)C[C@@H](C)C(=NC(C)=O)[C@H](C)[C@@H](OC/C(=N\OCc3ccc(-c4ncccn4)s3)CO2)[C@]1(C)O,700906 (erythromycin A-resistant),<0.06 µg/mL
O=C(NNC(=O)Nc1ccc(Cl)c(Cl)c1)Nc1ccc(Cl)c(Cl)c1,STP6301,1.7 µM
CC[C@H]1OC(=O)[C@@](C)(F)C(=O)[C@H](C)[C@@H](O[C@@H]2O[C@H](C)C[C@H](N(C)C)[C@H]2O)[C@@]2(C)C[C@@H](C)C(=NC(C)=O)[C@H](C)[C@@H](OC/C(=N\OCc3ccc(C(N)=O)cc3)CO2)[C@]1(C)O,700906 (erythromycin A-resistant),0.25 µg/mL
O=C(CC(=O)Nc1cc(C(F)(F)F)cc(C(F)(F)F)c1)Nc1cccc(C2=NCCN2)c1,STP6301,38 µM
CC[C@H]1OC(=O)[C@H](C)C(=O)[C@H](C)[C@@H](O[C@@H]2O[C@H](C)C[C@H](N(C)C)[C@H]2O)[C@@]2(C)C[C@@H](C)C(=NC(C)=O)[C@H](C)[C@@H](OC/C(=N\OCCc3ccccc3)CO2)[C@]1(C)O,700906 (erythromycin-resistant-ERM),4 µg/mL
CC[C@H]1OC(=O)[C@H](C)C(=O)[C@H](C)[C@@H](O[C@@H]2O[C@H](C)C[C@H](N(C)C)[C@H]2O)[C@@]2(C)C[C@@H](C)C(=NC(C)=O)[C@H](C)C(OC/C(=C\C#Cc3ccc(N)nc3)CO2)[C@]1(C)O,700906 (erythromycin-resistant-ERM),0.13 µg/mL
CC[C@H]1OC(=O)[C@@](C)(F)C(=O)[C@H](C)[C@@H](O[C@@H]2O[C@H](C)C[C@H](N(C)C)[C@H]2O)[C@@]2(C)C[C@@H](C)C(=NC(C)=O)[C@H](C)[C@@H](OC/C(=N\OCc3ccc4nc(N)sc4c3)CO2)[C@]1(C)O,49619 (erythromycin A-susceptible),<0.06 µg/mL
CC[C@H]1OC(=O)[C@H](C)C(=O)[C@H](C)[C@@H](O[C@@H]2O[C@H](C)C[C@H](N(C)C)[C@H]2O)[C@@]2(C)C[C@@H](C)C(=NC(C)=O)[C@H](C)C(OC/C(=C\C#Cc3ccccc3)CO2)[C@]1(C)O,700906 (erythromycin-resistant-ERM),0.25 µg/mL
O=C(O)c1cn(C2CC2)c2cc(N3CCNCC3)ccc2c1=O,R6-G8,32 µg/mL
CC[C@H]1OC(=O)[C@H](C)C(=O)[C@H](C)[C@@H](O[C@@H]2O[C@H](C)C[C@H](N(C)C)[C@H]2O)[C@@]2(C)C[C@@H](C)C(=NC(C)=O)[C@H](C)C(OC/C=C/CO2)[C@]1(C)O,7701 (erythromycin-resistant-MEF),0.5 µg/mL
CC[C@H]1OC(=O)[C@@](C)(F)C(=O)[C@H](C)[C@@H](O[C@@H]2O[C@H](C)C[C@H](N(C)C)[C@H]2O)[C@@]2(C)C[C@@H](C)C(=NC(C)=O)[C@H](C)[C@@H](OC/C(=N\OCc3ccc(-c4ncccn4)s3)CO2)[C@]1(C)O,700906 (erythromycin A-resistant),<0.06 µg/mL
O=C(CC(=O)Nc1cccc(C(F)(F)F)c1)Nc1cccc(C(F)(F)F)c1,STP6301,>300 µM
CC[C@H]1OC(=O)[C@H](C)C(=O)[C@H](C)[C@@H](O[C@@H]2O[C@H](C)C[C@H](N(C)C)[C@H]2O)[C@@]2(C)C[C@@H](C)/C(=N\C(=O)OC)[C@H](C)C(OC/C(=C\C=C\c3ccccc3)CO2)[C@]1(C)O,700906 (erythromycin-resistant-ERM),4 µg/mL
CN1CCN(c2cc3c(cc2F)c(=O)c(C(=O)O)cn3C2CC2)CC1,D-1687,8 µg/mL
CC[C@H]1OC(=O)[C@H](C)C(=O)[C@H](C)[C@@H](O[C@@H]2O[C@H](C)C[C@H](N(C)C)[C@H]2O)[C@](C)(OC)C[C@@H](C)C(=O)[C@H](C)[C@H]2N(CCCCn3cnc(-c4cccnc4)c3)C(=O)O[C@]12C,7701 (erythromycin-resistant-MEF),0.06 µg/mL
CC[C@H]1OC(=O)[C@@](C)(F)C(=O)[C@H](C)[C@@H](O[C@@H]2O[C@H](C)C[C@H](N(C)C)[C@H]2O)[C@@]2(C)C[C@@H](C)C(=N)[C@H](C)[C@@H](OC/C(=N\OCc3ccc(-c4nccs4)nc3)CO2)[C@]1(C)O,49619 (erythromycin A-susceptible),<0.06 µg/mL
CC[C@H]1OC(=O)[C@H](C)C(=O)[C@H](C)[C@@H](O[C@@H]2O[C@H](C)C[C@H](N(C)C)[C@H]2O)[C@@]2(C)C[C@@H](C)C(=NC(=O)CO)[C@H](C)C(OC/C(=C\C=C\c3ccccc3)CO2)[C@]1(C)O,49619 (erythromycin-susceptible),<0.06 µg/mL
CC[C@H]1OC(=O)[C@H](C)C(=O)[C@H](C)[C@@H](O[C@@H]2O[C@H](C)C[C@H](N(C)C)[C@H]2O)[C@@]2(C)C[C@@H](C)C(=NC(C)=O)[C@H](C)[C@@H](OC/C(=N\OCC#Cc3ccc(N)nc3)CO2)[C@]1(C)O,49619 (erythromycin-susceptible),<0.06 µg/mL
CC[C@H]1OC(=O)[C@@](C)(F)C(=O)[C@H](C)[C@@H](O[C@@H]2O[C@H](C)C[C@H](N(C)C)[C@H]2O)[C@@]2(C)C[C@@H](C)C(=NC(C)=O)[C@H](C)[C@@H](OC/C(=N\OCc3ccc(-c4nccs4)nc3)CO2)[C@]1(C)O,700906 (erythromycin A-resistant),<0.06 µg/mL
O=C(NNC(=O)Nc1cc(C(F)(F)F)cc(C(F)(F)F)c1)Nc1ccccc1,STP6301,>200 µM
CC[C@H]1OC(=O)[C@H](C)C(=O)[C@H](C)[C@@H](O[C@@H]2O[C@H](C)C[C@H](N(C)C)[C@H]2O)[C@@]2(C)C[C@@H](C)C(=NC(C)=O)[C@H](C)[C@@H](OC/C(=N\OCc3cccc(N)n3)CO2)[C@]1(C)O,49619 (erythromycin-susceptible),<0.06 µg/mL
CC[C@H]1OC(=O)[C@H](C)C(=O)[C@H](C)[C@@H](O[C@@H]2O[C@H](C)C[C@H](N(C)C)[C@H]2O)[C@@]2(C)C[C@@H](C)C(=NC(C)=O)[C@H](C)C(OC/C(=C\C=C\c3ccccc3)CO2)[C@]1(C)O,49619 (erythromycin-susceptible),<0.06 µg/mL
COc1c(N2CCNC(C)C2)ccc2c(=O)c(C(=O)O)cn(C3CC3)c12,D-1687,64 µg/mL

Repeating the final 4 entries:

SMILES	strain	value
O=C(NNC(=O)Nc1cc(C(F)(F)F)cc(C(F)(F)F)c1)Nc1ccccc1	STP6301	>200 µM
CC[C@H]1OC(=O)[C@H](C)C(=O)[C@H](C)[C@@H](O[C@@H]2O[C@H](C)C[C@H](N(C)C)[C@H]2O)[C@@]2(C)C[C@@H](C)C(=NC(C)=O)[C@H](C)[C@@H](OC/C(=N\OCc3cccc(N)n3)CO2)[C@]1(C)O	49619 (erythromycin-susceptible)	<0.06 µg/mL
CC[C@H]1OC(=O)[C@H](C)C(=O)[C@H](C)[C@@H](O[C@@H]2O[C@H](C)C[C@H](N(C)C)[C@H]2O)[C@@]2(C)C[C@@H](C)C(=NC(C)=O)[C@H](C)C(OC/C(=C\C=C\c3ccccc3)CO2)[C@]1(C)O	49619 (erythromycin-susceptible)	<0.06 µg/mL
COc1c(N2CCNC(C)C2)ccc2c(=O)c(C(=O)O)cn(C3CC3)c12	D-1687	64 µg/mL